# According to paper PMC9481026 (PLoS ONE, 2022):
# Test system: HepDES19
# Settings: ratio CC50 / EC50
row,Compound,SI HepDES19
1,CCCCNC(=O)c1cc(O)c(=O)c(O)cc1C [Compound 1039],<1.0
2,CC(=O)c1c(C)cc(O)c(=O)c(O)c1-c1ccccc1 [Compound 330],5.4
3,O=c1c(O)cccc(S(=O)(=O)c2cccc3ccccc23)c1O [Compound 698],1.2
4,Cc1cc(O)c(=O)c(O)c(O)c1C(=O)c1ccc(-c2ccccc2)cc1 [Compound 362],2.1
5,Cc1cc(O)c(=O)c(O)cc1C(=O)N[C@@H](CCC(=O)OC(C)(C)C)C(=O)OC(C)(C)C [Compound 867],<1.0
6,Cc1cc(O)c(=O)c(O)cc1C(=O)c1ccc(Br)cc1 [Compound 358],1.4
7,CSc1cccc(O)c(=O)c1O [Compound 385],4.0
8,CC(=Nc1ccccc1Cl)c1c(C)cc(=O)n(O)c1O [Compound 668],4.0
9,Cc1cc(O)c(=O)c(O)cc1C(=O)c1ccccc1 [Compound 111],1.9
10,CC(=Nc1ccc(C(F)(F)F)cc1)c1c(C)cc(=O)n(O)c1O [Compound 517],<1.0
11,Cc1cc(O)c(=O)c(O)cc1C(=O)c1ccc(-c2ccncc2)cc1 [Compound 260],1.4
12,O=c1c(O)cccc(SCCc2ccccc2)c1O [Compound 704],1.5
13,Cc1ccc(/C=C/C(=O)c2ccccc(=O)c2O)cc1 [Compound 340],0.7
14,COc1ccc(/C=C/C(=O)c2ccccc(=O)c2O)cc1 [Compound 342],0.548
15,Cc1cc(O)c(=O)c(O)cc1C(=O)NCc1ccccc1 [Compound 388],2.2
16,Cc1cc(O)c(=O)c(O)cc1C(=O)N1CCN(C(c2ccc(F)cc2)c2ccc(F)cc2)CC1 [Compound 1017],<1.0
17,Cc1cc(O)c(=O)c(O)cc1C(=O)C1CCCCC1 [Compound 120],2.7
18,O=C1C=CC(=O)c2ccccc21 [Compound 327],0.466
19,Cc1cc(O)c(=O)c(O)cc1C(=O)c1ccccc1O [Compound 311],2.7

row,Compound,SI HepDES19
1,CCCCCCSc1cccc(O)c(=O)c1O [Compound 840],<1.0
2,CCCCSc1ccc(SCCCC)c(O)c(=O)c1O [Compound 694],<1.0
3,Cc1cc(O)c(=O)c(O)cc1C(=O)NCc1ccc(-c2ccccc2)cc1 [Compound 539],<1.0
4,O=c1c(O)c(SCc2ccccc2)ccc(SCc2ccccc2)c1O [Compound 703],<1.0
5,Cc1cc(O)c(=O)c(O)cc1-c1ccccc1 [Compound 113],4.6
6,Cc1cc(O)c(=O)c(O)cc1C(=O)Nc1ccccc1 [Compound 389],3.0
7,COC(=O)c1c(C)cc(O)c(=O)c(O)c1O [Compound 196],0.251
8,O=C(/C=C/c1cccc(Br)c1)c1ccccc(=O)c1O [Compound 341],0.7
9,Cc1cc(O)c(=O)c(O)cc1C(=O)N1CCCCC1 [Compound 390],2.5
10,Cc1ccc(Sc2cccc(O)c(=O)c2O)cc1 [Compound 838],1.5
11,Cc1cc(O)c(=O)c(O)cc1C(=O)c1ccccc1O [Compound 359],3.8
12,Cc1cc(O)c(=O)c(O)cc1C(=O)c1cccs1 [Compound 308],22.2
13,C/C(=N\c1ccc(Cl)c(Cl)c1)c1c(C)cc(O)n(O)c1=O [Compound 670],4.9
14,CC(=O)c1c(C)cc(O)c(=O)c(O)c1Br [Compound 320],1.5
15,CC(=O)c1c(C)cc(O)c(=O)c(O)c1-c1cccc2ccccc12 [Compound 331],2.3
16,CC1=CC(O)N(O)C(O)=C1C(C)=Nc1ccccc1N (stereo not shown) [Compound 208],<1.0
17,CCc1cccc(N=C(C)c2c(C)cc(=O)n(O)c2O)c1 [Compound 518],4.6
18,O=c1c(O)ccc(-c2ccco2)cc1O [Compound 265],1.7
